Source: article PMC4309557, “Application of the C3-Binding Motif of Streptococcal Pyrogenic Exotoxin B to Protect Mice from Invasive Group A Streptococcal Infection” (2015)

Target: human serum complement 3 (C3) (UniProt P01024)
Test: ELISA
Details: read off a plot

With SPE B (wild type) C192S the other: Relative C3 Binding % was 92%.
